PubChem BioAssay AID624099, ICCB-Longwood | 2012
Aim: 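Knock-downs relieving repression by E2 of an HPV18 LCR luciferase reporter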 (primary screen). System: human C33A cervical carcinoma cells (HPV-negative) stably expressing BPV1 E2 and an HPV18 LCR luciferase reporter. Reagent: siRNA pool against human genes, 40 nM. Time to read-out: 72 h. Read-out: 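HPV18 LCR reporter light per well, converted to plate-wise z-scores that exclude control wells, and averaged over triplicate plates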. Direction: mean z-score and z-score: higher = stronger reporter signal, weaker E2 silencing. Hit rule: 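Hit if mean z-score reaches 2 and two or more of three replicate z-scores also reach 2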.
This is a random part of about 21,000 reagents. 497 of them (2.4%) count as active. 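Higher z means weaker E2 silencing; only reporter increases were scored, and knock-downs that hurt cell survival may mask genuine repressor factors.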

The opening 3 records, to show the layout:
ZNF680 (GeneID 340252) → mean z-score: 0.34; z-score, replicate A: 0.45; z-score, replicate B: 0.17; z-score, replicate C: 0.41; Call: inactive
LOC388746 (retired record) (GeneID 388746) → mean z-score: 0.71; z-score, replicate A: 0.89; z-score, replicate B: 0.49; z-score, replicate C: 0.74; Call: inactive
ELAVL4 (GeneID 1996) → mean z-score: -0.84; z-score, replicate A: -1.04; z-score, replicate B: -0.67; z-score, replicate C: -0.8; Call: inactive

The list itself, repeating the preview:
ZNF680 (GeneID 340252) → mean z-score: 0.34; z-score, replicate A: 0.45; z-score, replicate B: 0.17; z-score, replicate C: 0.41; Call: inactive
LOC388746 (retired record) (GeneID 388746) → mean z-score: 0.71; z-score, replicate A: 0.89; z-score, replicate B: 0.49; z-score, replicate C: 0.74; Call: inactive
ELAVL4 (GeneID 1996) → mean z-score: -0.84; z-score, replicate A: -1.04; z-score, replicate B: -0.67; z-score, replicate C: -0.8; Call: inactive
MYOM1 (GeneID 8736) → mean z-score: 0.67; z-score, replicate A: 0.58; z-score, replicate B: 0.75; z-score, replicate C: 0.7; Call: inactive
CD59 (GeneID 966) → mean z-score: -0.04; z-score, replicate A: 0.07; z-score, replicate B: -0.15; z-score, replicate C: -0.04; Call: inactive
HGH1 (GeneID 51236) → mean z-score: -1.13; z-score, replicate A: -0.69; z-score, replicate B: -1.23; z-score, replicate C: -1.47; Call: inactive
A2ML1 (GeneID 144568) → mean z-score: 1.52; z-score, replicate A: 1.67; z-score, replicate B: 1.45; z-score, replicate C: 1.45; Call: inactive
APOL4 (GeneID 80832) → mean z-score: 1.26; z-score, replicate A: 1.43; z-score, replicate B: 0.98; z-score, replicate C: 1.36; Call: inactive
CXCL9 (GeneID 4283) → mean z-score: -0.03; z-score, replicate A: -0.02; z-score, replicate B: -0.26; z-score, replicate C: 0.2; Call: inactive
VWA1 (GeneID 64856) → mean z-score: 0.21; z-score, replicate A: 0.24; z-score, replicate B: 0.18; z-score, replicate C: 0.22; Call: inactive
TRIM9 (GeneID 114088) → mean z-score: -0.66; z-score, replicate A: -0.25; z-score, replicate B: -0.6; z-score, replicate C: -1.13; Call: inactive
ZAR1 (GeneID 326340) → mean z-score: 1.73; z-score, replicate A: 2; z-score, replicate B: 1.7; z-score, replicate C: 1.48; Call: inactive
LRR1 (GeneID 122769) → mean z-score: -0.48; z-score, replicate A: -0.7; z-score, replicate B: -0.31; z-score, replicate C: -0.44; Call: inactive
ST8SIA3 (GeneID 51046) → mean z-score: -0.29; z-score, replicate A: -0.31; z-score, replicate B: -0.31; z-score, replicate C: -0.23; Call: inactive
SNAI3-AS1 (GeneID 197187) → mean z-score: 0.51; z-score, replicate A: 0.72; z-score, replicate B: 0.2; z-score, replicate C: 0.6; Call: inactive
WDR83OS (GeneID 51398) → mean z-score: -0.17; z-score, replicate A: 0.01; z-score, replicate B: -0.24; z-score, replicate C: -0.27; Call: inactive
NR2C2AP (GeneID 126382) → mean z-score: -0.99; z-score, replicate A: -0.5; z-score, replicate B: -1.46; z-score, replicate C: -1.01; Call: inactive
PLEKHH2 (GeneID 130271) → mean z-score: 0.63; z-score, replicate A: 0.81; z-score, replicate B: 0.64; z-score, replicate C: 0.45; Call: inactive
ACTL11P (GeneID 389120) → mean z-score: -2.04; z-score, replicate A: -2.06; z-score, replicate B: -2.38; z-score, replicate C: -1.68; Call: inactive
RPLP0P6 (GeneID 220717) → mean z-score: -0.16; z-score, replicate A: -0.5; z-score, replicate B: 0.16; z-score, replicate C: -0.14; Call: inactive
MPST (GeneID 4357) → mean z-score: -0.94; z-score, replicate A: -1.19; z-score, replicate B: -0.86; z-score, replicate C: -0.78; Call: inactive
TRIM40 (GeneID 135644) → mean z-score: -1.77; z-score, replicate A: -1.56; z-score, replicate B: -1.9; z-score, replicate C: -1.85; Call: inactive
FAM30A (GeneID 9834) → mean z-score: 4.86; z-score, replicate A: 4.7; z-score, replicate B: 5.18; z-score, replicate C: 4.69; Call: active
NINJ1 (GeneID 4814) → mean z-score: 1.53; z-score, replicate A: 1.41; z-score, replicate B: 1.55; z-score, replicate C: 1.64; Call: inactive
SLC5A7 (GeneID 60482) → mean z-score: 0.67; z-score, replicate A: 0.03; z-score, replicate B: 0.45; z-score, replicate C: 1.54; Call: inactive
STOM (GeneID 2040) → mean z-score: 0.42; z-score, replicate A: 0.49; z-score, replicate B: 0.21; z-score, replicate C: 0.56; Call: inactive
LOC149913 (retired record) (GeneID 149913) → mean z-score: 1.06; z-score, replicate A: 1.12; z-score, replicate B: 0.88; z-score, replicate C: 1.19; Call: inactive
